# Measurements reported in publication PMC10782225 (The FASEB Journal, 2023).
# What was measured:
# Experiment in all cases: cell-based
# human α7β2‐nAChR [1] = biological target: T1, human α7β2‐nAChR (Homo sapiens, UniProt P17787+P36544); conditions: SEM
# T1 construct: expressed in transfected cells; host or cells: Xenopus laevis oocytes, cRNA injection
# human α7β2‐nAChR [2] = system: human α7β2‐nAChR
# human α7‐only‐nAChR = biological target: T2, human α7‐only‐nAChR (Homo sapiens, UniProt P36544); conditions: SEM
# T2 construct: expressed in transfected cells; host or cells: Xenopus laevis oocytes, cRNA injection
compound,measurement,setting,value
CC(C)C[C@@H]1NC(=O)[C@H](Cc2ccccc2)NC(=O)[C@@H]2CSSC[C@H](NC(=O)CN)C(=O)N[C@@H](CSSC[C@@H](C(N)=O)NC(=O)[C@H](Cc3ccc(O)c(I)c3)NC(=O)[C@H](CC(=O)O)NC(=O)[C@@H]3CCCN3C(=O)[C@H](CC(N)=O)NC(=O)[C@H](CC(N)=O)NC1=O)C(=O)N[C@@H](CO)C(=O)N[C@@H](Cc1c[nH]cn1)C(=O)N1CCC[C@H]1C(=O)N1CCC[C@H]1C(=O)N2 [[Y15iodo]],N obs α7β2,human α7β2‐nAChR [1],1.51 ± 0.06
same,N off α7β2,human α7β2‐nAChR [1],1.58 ± 0.11
same,k obs α7β2,human α7β2‐nAChR [1],71.5 ± 2.9 min^−1 (×10^−3)
same,koff,human α7β2‐nAChR [1]; read-out: k off α7β2,5.72e-05 s⁻¹
same,kon,human α7β2‐nAChR [1]; read-out: k on α7β2,37800 M⁻¹ s⁻¹
same,α7β2 Selectivity,human α7β2‐nAChR [2],4.3x
same,N obs α7‐only,human α7‐only‐nAChR,5.78 ± 0.99
same,N off α7‐only,human α7‐only‐nAChR,2.16 ± 0.46
same,k obs α7‐only,human α7‐only‐nAChR,246 ± 99 min^−1 (×10^−3)
same,koff,human α7‐only‐nAChR; read-out: k off α7‐only,0.000177 s⁻¹
same,kon,human α7‐only‐nAChR; read-out: k on α7‐only,27500 M⁻¹ s⁻¹
